The values that follow come from the supplement of paper PMC12637763.

Substitutions are numbered along the chain they refer to. The list shows a part of the results. Env chains of viruses from a treatment-interruption trial, translated from the printed DNA. IC50 / IC80 of two broadly neutralizing antibodies; lower = more sensitive virus; >50 µg/ml means not reached and <0.001 µg/ml is below the lowest dose. No active / inactive call.

Test [1] concerns the target antibody 10-1074. Put plainly: neutralization IC50; higher = virus less sensitive to the antibody. The procedure:
(§1)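 Pseudovirus bearing the Env chain mixed with antibody, from 50 µg/ml in fivefold dilutions, on TZM-bl reporter cells, in duplicate.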

Test [2] addresses antibody 3BNC117. The test is described as above. The procedure: as §1
The target of test [3] is antibody 10-1074. Description: neutralization IC80; higher = virus less sensitive to the antibody. The procedure: as §1
Test [4] deals with antibody 3BNC117. The test is described as above. Here is the method:
as §1

B1: HIV-1 Env, rebound clone, placebo arm (protein)
chain: MIVMGMKRNWQQWWRGGILLLGMLMMICSAEDNAWVTVYYGVPVWREANVTLFCASDAKAYDTEVHNVWATHACVPTDPSPQEIKLENVTENFNMWKNNMVEQMHEDIISLWDQSLKPCVKLTPLCVTLNCTDYLGSNATNSTSGNNGTISNNITIEDSEKGEIKNCSFNVTTGIRDKMNKEYALLYKTDLVSIDNDNTSYRLISCNTSVITQACPKVTFEPIPIHYCAPAGFAILKCKDKKFNGTGPCKNVSTVQCTHGIRPVVSTQLLLNGSLAEEDVVIRSANFTNNAKVIIVQLNETVEINCTRPNNNTRKGINIGPGRAWYTIKDIVGDIRQAHCNISRPKWNRALEKIVEKLREQFGVNKTIVFNQSSGGDPEIVMHHFNCQGEFFYCNTTGLFNTRRNGTWNDTWENYTAGQGNNETITLPCRIRQIVNLWQEVGKAMYAPPIRGYINCSSNITGLLLVRDGGIKNSTNDTDNNTEIFRPGGGDMRDNWRSELYKYKVVQVEPVGIAPTRAKRRVVQREKRAVTLGAMFLGFLGTAGSTMGAASLTLTVQVRQLLSGIVQQQNNLLRAIEAQQHLLQLTVWGIKQLQARVLAVERYLRDQQILGIWGCSGKLICTTAVPWNTSWSNKSVDHIWGNMTWMQWEREIENYTGVIYKLLEESQNQQEKNEQDLLELDKWASLWTWFDITHWLWYIRLFIMIVGGLIGLRIVFAVFSLVNRVRQGYSPLSFQTHLPAPRGPDRPEGIEEEGGEPDRGRSVRLVNGFLALIWDDLRSLCLFSYHRLRDLLLIVTRIVELLGRRGWEAIKYLWNLLQYWSQELKNSAVSLLNAFAIAVAEGTDRVIEIIQGAFRAIIHIPRRIRQGLERSLL
For the molecule B1, the “neutralization IC50” value with antibody 10-1074 [1] worked out at 0.227 µg/mL; in the test with antibody 3BNC117 [2], 0.172 µg/mL. The entries for the “neutralization IC80” value with antibody 10-1074 [3] and with antibody 3BNC117 [4] were 0.884 µg/mL and 0.822 µg/mL, respectively.

B2: HIV-1 Env, rebound clone, placebo arm (protein)
chain: B1 chain with N99D, G398R, R404W, E756K
For B2, the entries for the “neutralization IC50” value with antibody 10-1074 [1] and with antibody 3BNC117 [2] were 0.262 µg/mL and 0.44 µg/mL, respectively. In addition, the entries for the “neutralization IC80” value in the test with antibody 10-1074 [3] and in the test with antibody 3BNC117 [4] were 0.916 µg/mL and 1.46 µg/mL, respectively.

B3: HIV-1 Env, rebound clone, placebo arm (protein)
chain: B1 chain with N99D, G398R, R404W, I639T
As for B3, the results for the “neutralization IC50” value with antibody 10-1074 [1] and with antibody 3BNC117 [2] were 0.18 µg/mL and 0.39 µg/mL, respectively. The entries for the “neutralization IC80” value with antibody 10-1074 [3] and with antibody 3BNC117 [4] were 0.776 µg/mL and 1.27 µg/mL, respectively.

B4: HIV-1 Env, rebound clone, placebo arm (protein)
chain: B1 chain with N99D, R404W, G420D
Take B4: the “neutralization IC50” value in the test with antibody 10-1074 [1] came out at 0.164 µg/mL; with antibody 3BNC117 [2], 0.312 µg/mL. Moreover, the “neutralization IC80” value came out at 0.607 µg/mL with antibody 10-1074 [3] and 1.09 µg/mL with antibody 3BNC117 [4].

B5: HIV-1 Env, rebound clone, placebo arm (protein)
chain: B1 chain with R404W, T416P
On to B5, for which the “neutralization IC50” value in the test with antibody 10-1074 [1] stood at 0.347 µg/mL; with antibody 3BNC117 [2], 0.387 µg/mL. The “neutralization IC80” value is 0.975 µg/mL in the test with antibody 10-1074 [3] and 1.34 µg/mL with antibody 3BNC117 [4].

B6: HIV-1 Env, rebound clone, placebo arm (protein)
chain: B1 chain with N99D, G398R, R404W
Consider B6, for which the “neutralization IC50” value is 0.242 µg/mL with antibody 10-1074 [1] and 0.29 µg/mL in the test with antibody 3BNC117 [2]. For the same molecule, the figures for the “neutralization IC80” value with antibody 10-1074 [3] and with antibody 3BNC117 [4] were 0.842 µg/mL and 1.97 µg/mL, respectively.
